Anti-infective test results gathered from many reports (values: NIAID ChemDB through PubChem).

All rows: whole-cell or culture tests; agent: Herpes simplex virus 2; read by: cytopathic effect; measure: EC50

ECn is the concentration giving n% inhibition of infection, replication or growth. An empty or dashed field is not shown. Rows are shuffled and stem from different studies.

SMILES | cells | strain | value
[N-]=[N+]=NCc1cn([C@H]2C[C@H](O)[C@@H](CO)O2)c(=O)[nH]c1=O | PRK | VDX192 | 4 µg/mL
Cc1[nH]c2nc3c(ncn3COCCO[Si](C)(C)C(C)(C)C)c(=O)n2c1C(c1ccccc1)(c1ccccc1)c1ccccc1 |  | G | >10 µg/mL
OC[C@H]1O[C@@H](c2cc(/C=C/I)c(F)cc2F)C[C@@H]1O | E6SM | 196 | >400 µg/mL
Cc1cc([C@H]2C[C@H](O)[C@@H](CO)O2)c(Cl)cc1F | E6SM | G | >400 µg/mL
Nc1nc2c(ncn2COC(CO)CO)c(=O)[nH]1 | HEL | G | 0.03 µM
Nc1nc2c(ncn2COCCO)c(=O)[nH]1 | FS-71 | G | 0.23 µg/mL
Nc1nc(=O)c(/C=C/Br)cn1[C@H]1C[C@H](O)[C@@H](CO)O1 | PRK | LYONS | 300 µg/mL
O=[N+]([O-])c1cc([C@H]2C[C@H](O)[C@@H](CO)O2)c(F)cc1F | E6SM | LYONS | >400 µg/mL
OC[C@H]1O[C@@H](c2cc(/C=C/Br)c(F)cc2F)C[C@@H]1O | E6SM | LYONS | >400 µg/mL
O=c1c2ncn(COC(CO)CO)c2nc2[nH]c(-c3ccccc3)cn12 |  | G | 0.3 µg/mL
Nc1ncnc2c1ncn2[C@@H]1O[C@H](CO)[C@@H](O)[C@H]1OP(=O)(O)OC[C@H]1O[C@@H](n2cnc3c(N)ncnc32)[C@H](OP(=O)(O)OC[C@H]2O[C@@H](n3cc(/C=C/Br)c(=O)[nH]c3=O)C[C@@H]2O)[C@@H]1O | PRK | G | 7 µg/mL
O=Cc1cn([C@H]2C[C@H](O)[C@@H](CO)O2)c(=O)[nH]c1=O | PRK | VCX301 | 1 µg/mL
Nc1nc2c(ncn2COC(CO)CO)c(=O)[nH]1 | HEL | G | 0.016 µM
O=c1c2ncn(COC(CO)CO)c2nc2[nH]c(-c3ccc(F)cc3)cn12 | HEL | LYONS | 1.92 µg/mL
CCCc1cn([C@H]2C[C@H](O)[C@@H](COP(=O)(O)O)O2)c(=O)[nH]c1=O | PRK | LYONS | 6 µg/mL
Cc1cc([C@H]2C[C@H](O)[C@@H](CO)O2)c(F)cc1F | E6SM | LYONS | >400 µg/mL
O=C(O)P(=O)(O)O | HEL | HS-47 (TK+) | 71 µM
Cc1c(-c2ccc(F)cc2)[nH]c2nc3c(ncn3COCCO)c(=O)n12 | HEL | LYONS | 1.92 µg/mL
Cc1cn([C@@H]2O[C@H](CO)[C@@H](O)[C@@H]2F)c(=O)[nH]c1=O | VERO | K979 | <0.3 µg/mL
CC(=O)OCCOCn1cnc2c(=O)n3cc(-c4ccc5ccccc5c4)[nH]c3nc21 |  | 196 | >16 µg/mL
OC[C@H]1O[C@H](c2cc(Cl)c(F)cc2F)C[C@@H]1O | E6SM | 196 | >400 µg/mL
Nc1nc2c(ncn2COC(CO)CO)c(=O)[nH]1 | PRK | G | <0.1 µg/mL
N#Cc1cc([C@H]2C[C@H](O)[C@@H](CO)O2)c(F)cc1F | E6SM | 196 | >400 µg/mL
Nc1nc2c(ncn2COCCOP(=O)(O)O[C@@H]2[C@H](O)[C@@H](COP(=O)(O)O[C@@H]3[C@H](O)[C@@H](CO)O[C@H]3n3cnc4c(N)ncnc43)O[C@H]2n2cnc3c(N)ncnc32)c(=O)[nH]1 | PRK | G | 0.2 µg/mL
COc1ccc(/C=N/NC(=O)c2ccccc2S(=O)(=O)NC(C)C)cc1 | HEL | G | >100 µM
O=c1c2ncn(COCCO)c2nc2[nH]c(-c3ccccc3)c(Cc3ccc(F)cc3)n12 | HEL | G | >16 µg/mL
Nc1ccn(C[C@@H](CO)OCP(=O)(O)O)c(=O)n1 | HEL | G | 2 µM
CCc1cn([C@H]2C[C@H](O)[C@@H](CO)O2)c(=O)[nH]c1=O | PRK | G | 4 µg/mL
O=c1[nH]c(=O)n([C@@H]2O[C@H](CO)[C@@H](O)[C@@H]2F)cc1I | HEP-2 | K979 | <0.1 µg/mL
Cc1ccc(S(=O)(=O)NNC(=O)c2ccccc2S(=O)(=O)NC(C)C)cc1 | HEL | G | >100 µM
Nc1nc2c(ncn2COCCO)c(=O)[nH]1 | HFF | V72833 (acyclovir-susceptible) | 0.5 µg/mL
O=c1[nH]c(=O)n([C@H]2C[C@H](O)[C@@H](CO)O2)cc1/C=C/Br | HEP-2 | K979 | <3 µg/mL
O=c1c2ncn(COCCO)c2nc2[nH]c(-c3ccccc3)c(Cc3ccccc3)n12 | HEL | 196 | >16 µg/mL
CCCCCCCC/C=C/CCCCCCCC(=O)O | HEL | HS-44 (TK-) | >100 µM
O=c1[nH]c(=O)n([C@H]2CC[C@@H](CO)O2)cc1/C=C/Br | PRK | G | 1 µg/mL
Cc1ccc(/C=N/NC(=O)c2ccccc2S(=O)(=O)NC(C)C)cc1 | HEL | G | >100 µM
CSCc1cn([C@H]2C[C@H](O)[C@@H](CO)O2)c(=O)[nH]c1=O | PRK | 196 | 4 µg/mL
O=c1c2ncn(COCCO)c2[nH]c2ncc(CO)n12 |  | G | >3.2 µg/mL
OC[C@H]1O[C@@H](c2cc(C#CI)c(F)cc2F)C[C@@H]1O | E6SM | LYONS | >400 µg/mL
COc1ccc(-c2[nH]c3nc4c(ncn4COCCO)c(=O)n3c2-c2ccc(C(c3ccccc3)c3ccccc3)cc2)cc1 |  | G | >16 µg/mL
OC[C@H]1O[C@@H](c2cc(Cl)c(F)cc2F)C[C@@H]1O | E6SM | G | >400 µg/mL
O=c1[nH]c(=O)n([C@H]2C[C@H](O)[C@@H](CO)O2)cc1/C=C/Br | PRK | G | 2 µg/mL
O=c1[nH]c(=O)n([C@H]2C[C@H](O)[C@@H](CO)O2)cc1I | PRK | LYONS | 0.2 µg/mL

Again, the opening 3 rows:

| SMILES | cells | strain | value |
|---|---|---|---|
| [N-]=[N+]=NCc1cn([C@H]2C[C@H](O)[C@@H](CO)O2)c(=O)[nH]c1=O | PRK | VDX192 | 4 µg/mL |
| Cc1[nH]c2nc3c(ncn3COCCO[Si](C)(C)C(C)(C)C)c(=O)n2c1C(c1ccccc1)(c1ccccc1)c1ccccc1 |  | G | >10 µg/mL |
| OC[C@H]1O[C@@H](c2cc(/C=C/I)c(F)cc2F)C[C@@H]1O | E6SM | 196 | >400 µg/mL |